From publication PMC11784312, “Structural basis of different neutralization capabilities of monoclonal antibodies against H7N9 virus” (2024)

Target: recombinant SD008 HA ectodomain (influenza A virus A/chicken/Guangdong/SD008/2017 (H7N9))
Experiment: cryo-EM structure

recombinant SD008 HA ectodomain (domain or fragment)
stoichiometry N: 3
